Measured values as given in patent publication US20120107903A1 (priority 2010, published 2012).
Some compounds may have been tested in ways that are not shown here.

Target: Ralstonia solanacearum IPO1609 transmembrane dehydrogenase (SEQ ID NO:10), variant QYY, S327Q/S366Y/A473Y (Ralstonia solanacearum, UniProt A0ABF7REW7, A473Y/S327Q/S366Y)
Conditions: crude enzyme, DCIP 0.06 mM, PMS 0.6 mM

## OC[C@H]1OC(O)[C@H](O)[C@@H](O)[C@@H]1O (stereo partly shown) [Glucose, glucose]
  Vmax (Glc): 1.55 U/mL
